# Test system: sorting reaction (sortase cleavage of Seb-Spa490-524 P2 precursor at the LPXTG motif)
# Details: Compound 5 mM added 15 seconds after beginning of pulse; ratio of Seb-Spa490-524 P2 precursor to mature anchored species; average of three ± SD
row,Compound,[P2]/[M]
1,"O[C@H](CS)[C@H](O)CS (racemic) [dithiothreitol (DTT), dithiothreitol]",0.13 ± 0.03
2,NC(=O)CI [iodoacetamide],0.12 ± 0.01
3,O=C(O)CI [iodoacetic acid],0.13 ± 0.02
4,p-hydroxymercuribenzoic acid,1.51 ± 0.04
